Experimental data from paper PMC11944577.
For some of these results: Protein sequences can lack the tags named with them. For some of these results: Construct, isoform or probe ends are uncertain for at least one entry.

By UniProt entry, the sequences of proteins in these tests, tags left out. Where a name states a change or a piece, a line headed by the entry shows the natural chain unless it says otherwise.
UniProt Q9RDT5: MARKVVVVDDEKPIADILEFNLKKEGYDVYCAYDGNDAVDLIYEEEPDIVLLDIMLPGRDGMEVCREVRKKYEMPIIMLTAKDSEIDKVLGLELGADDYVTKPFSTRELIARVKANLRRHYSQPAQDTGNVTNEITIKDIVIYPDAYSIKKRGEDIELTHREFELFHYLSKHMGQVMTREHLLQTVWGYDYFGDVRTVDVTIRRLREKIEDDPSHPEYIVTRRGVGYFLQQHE

How the values were obtained:
[1] = biological target: WalR (phosphorylated by WalK + ATP) (UniProt Q9RDT5); assay: EMSA; settings: WalK 1 uM, 5 mM ATP, recombinant protein, protein details: His, probe letters rebuilt from the primers and the genome
[2] = biological target: T1, MgrA (Staphylococcus aureus XN108) (UniProt P0C1S0); assay: EMSA; settings: MgrA 0-4 uM, dose-dependent; recombinant protein; residues 1-147; label: biotin (cap-F-biotin primer); probe letters rebuilt from the primers and the genome
T1 sequence (looked up): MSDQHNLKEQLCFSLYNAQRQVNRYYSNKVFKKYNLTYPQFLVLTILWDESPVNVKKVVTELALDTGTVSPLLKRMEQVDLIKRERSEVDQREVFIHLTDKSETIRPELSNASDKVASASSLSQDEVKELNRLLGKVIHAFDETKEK

[3] = biological target: WalR (phosphorylated by WalK + ATP) (UniProt Q9RDT5); assay: competition with a labelled probe; settings: 300-fold unlabelled vs biotin PmgrA, recombinant protein, protein details: His, probe letters rebuilt from the primers and the genome

AACGACTAGTTAAGAAAAATTGGAAAATAAATGCTTTTAGCATGTTTTAATATAACTAGATCACAGAGATGTGATGGAAAATAGTTGATGAGTTGTTTAATTTTAAGAATTTTTATCTTAATTAAGGAAGGAGTGATTTCAATGGCACAAGATATCATTTCAACAATCGGTGACTTAGTAAAATGGATTATCGACACAGTGAACAAATTCACTAAAAAATAA (double strand) [Pagr probe]
binding result ([1]; positive control, label: biotin (agr-F-biotin primer)): binds

TTCTAATGTACTTTCCATTATTTACCTCCCTTAAAAATTTTCATTAAAATTGGTATTATATATATAGTATTTACATATTACATATCGTTTAAACAATTAATTACTTTTAAACCGAATTATTTTCGCCTTTTTATTTATATGAAATTAAAAATAATTATACTCTAAAGTAGTAATATTTTGTGAAAAGTGTACCAATCTTAATACTTTCTTTATTAAAAAAATTGATTGTCTAGGTTGTATCTCTCTGAAGATTTGGCAATAAAGAAAAGCCGATAACCGTATAATGATTATCGACTTTAAGTTTATGTGGCATTTTTTACTTTTGTAATTTCAGGTGAGTTAGATGAT (double strand) [Pcap probe]
binding result [2]: binds

TTTATATTCTCTTTTCTATTACAGTTATTTTTAAAAATGATAACATATATATTAAATTATCTTTTTGCTTGATTTAATCAAAAATATCTTCTAAACTTTAAACATACTTTAATTTTAGCATGGCATTGAATCAAAGAAAGTTGTGAATTAATAAACAATCAACTTTTTAATGATTACCAATCCGAAAAGAGAAAAAAACGGATAGTATGTCTGGAGGAGAACTTTA (double strand) [PmgrA probe]
binding result ([1]; WalR 0-8 uM, dose-dependent, label: biotin (mgrA-F-biotin primer)): binds

TTTATATTCTCTTTTCTATTACAGTTATTTTTAAAAATGATAACATATATATTAAATTATCTTTTTGCTTGATTTAATCAAAAATATCTTCTAAACTTTAAACATACTTTAATTTTAGCATGGCATTGAATCAAAGAAAGTTGTGAATTAATAAACAATCAACTTTTTAATGATTACCAATCCGAAAAGAGAAAAAAACGGATAGTATGTCTGGAGGAGAACTTTA (double strand) [PmgrA unlabelled competitor]
binding result [3]: binds
